Measurements from patent US20150368668A1 (RUTGERS THE STATE UNIVERSITY OF NEW JERSEY, published 2015).

Biological target: T1, eE2-Fc fusion (J6 genotype 2a E2 ectodomain […], thrombin cleavage site, human Fc domain) (Hepatitis C virus J6 (genotype 2a); …)
T1 construct: Used as HEK293T cell culture supernatant in the CD81-LEL ELISA; also called pPro-eE2-Fc product; wild type eE2-Fc; not shown: thrombin cleavage site; Fc domain of human IgG
Test: ELISA, eE2-Fc supernatant on coated GST-mouse CD81 LEL, anti-human Fc-HRP

B1: GST-mouse CD81 LEL (receptor)
chain: MSPILGYWKIKGLVQPTRLLLEYLEEKYEEHLYERDEGDKWRNKKFELGLEFPNLPYYIDGDVKLTQSMAIIRYIADKHNMLGGCPKERAEISMLEGAVLDIRYGVSRIAYSKDFETLKVDFLSKLPEMLKMFEDRLCHKTYLNGDHVTHPDFMLYDALDVVLYMDPMCLDAFPKLVCFKKRIEAIPQIDKYLKSSKYIAWPLQGWQATFGGGDHPPKFVNKDQIAKDVKQFYDQALQQAVMDDDANNAKAVVKTFHETLNCCGSNALTTLTTTILRNSLCPSGGNILTPLLQQDCHQKIDELFSGK
notes: also called GST-mCD81 LEL; mCD81; not shown: carboxy-terminal histidine tag
B1: no binding.
